B1: shark VNAR A1 (VNAR)
VNAR: ARVDQTPQTITKETGESLTINCVPPDSNCALADTYWYRKKSGSTNEESISKGGRYVPTVNSGSKSFILRINDLRVADSGTYRCKVSCYAAAYYGQQLERLYDVYGGGTAVTVN
B2: shark VNAR A10 (VNAR)
chain: ARVDQTPQTITKETGESLTITCILRDSQCALSPTYWYHKKSGSTKPERIYKGGRYVETVNSGSKSFSLRINDLTVEDSGTFFCKVSGWYAYSCRLEPDGYYDVYGGGTVVTVN
B3: shark VNAR B8 (VNAR)
VNAR: ARVDQTPQTVTKETGESLTINCVLRDSNCALPSTYWYRKKSGSTNEENISKGGRYVETVNSGSKSFSLRINDLRPEDSGTYRCKVHGLPLDCIPARGLELNWREDVNGGGTAVTVN
B4: shark VNAR B10 (VNAR)
VNAR: ARVDQTPQTITKETGESLTINCVLRDSNCPLSSTFWYRADAGSLNEENISKGGRYVETVNSGSKSFSLRINDLTTEDSGTYRCKVAGLPLDCIPARGLELNWREDVYGGGTAVTVN
B5: shark VNAR C3 (VNAR)
VNAR: ARVDQTPQTITAETGESLTINCVLRNSDCGLSDTYWFRMSPGSGSEERISIGGRYLETVNSVSKSFSLRINDLTVEDSGRYRCKTDVYRYVSGSGCLYSYFASGAGTVVTVN
B6: camel VHH D5 (VHH)
VHH: AWQLVESGGGSVQPGGSLTLTCQASKSTFSTSGMRWERQAQGKGVEFVADISSDSTRKWYSDSVKGRFTISRSNWWRTVTLQMNDLKPEDTARYYCKDLESHHLRGQGTQVTVSS

Target: stabilized soluble LASV GPC trimer (Lassa virus)

Binder	Kd [nM]
B1	39.1
B2	14.3
B3	18.8
B4	44.5
B5	19.7
B6	26.7
